A mixed list of measured activities; the numbers were collected in NIAID ChemDB.

All rows: toxicity to cultured cells; cells: THP-1; measure: CC50

Rows are shuffled and stem from different studies. An empty or dashed field is not shown. CCn is the concentration with n% toxicity to the cells.

SMILES | read by | result
O=C(COc1ncnc2sccc12)N/N=C/c1ccccc1[N+](=O)[O-] | MTT / absorbance | 2420 µM
COc1cc(C2C/C(=N/c3nc4cc([N+](=O)[O-])c(F)c(Cl)c4s3)NN2c2nc3ccc(F)c(Cl)c3s2)ccc1O | MTT | 187.5 µg/mL
CCSc1n[nH]c(-c2ccc([N+](=O)[O-])c(C)c2)n1 | - | >100 µg/mL
S=c1nc(-c2ccc(Cl)cc2)[nH][nH]1 | MTT | >100 µg/mL
O=C(NCCc1ccccc1)c1ccc2ccccc2n1 | WST | >100 µM
COc1ccc(/C=N/NC(=O)COc2ncnc3sccc23)cc1 | MTT / absorbance | 2450 µM
C=CCSc1n[nH]c(-c2cccc([N+](=O)[O-])c2C)n1 | - | >100 µg/mL
Cc1ccnc(NC(=O)NS(=O)(=O)c2cc(NC(=O)CCl)ccc2Cl)n1 | MTT | 138 µg/mL
O=C(COc1ncnc2sccc12)N/N=C/c1ccccc1Br | MTT / absorbance | 2390 µM
Cc1cc(Cl)ccc1-c1nc(=S)[nH][nH]1 | MTT | 98.12 µg/mL
N#Cc1cccc(S(=O)(=O)N(Cc2c(Cl)cccc2Cl)c2cccc(C(=O)NC3CCC3)c2)c1 | absorbance | >33 µM
Cc1cccc(-c2nc(=S)[nH][nH]2)c1 | MTT | >100 µg/mL
C#CCSc1n[nH]c(-c2cccc([N+](=O)[O-])c2C)n1 | - | >100 µg/mL
Cc1ccc(Cl)cc1-c1nc(=S)[nH][nH]1 | MTT | 90.61 µg/mL
Oc1ccc(C2C/C(=N/c3nc4ccc(F)c(Cl)c4s3)NN2c2nc3ccccc3s2)cc1 | MTT | 447 µg/mL
CCC(C)Sc1n[nH]c(-c2ccc(C)cc2)n1 | MTT | >100 µg/mL
COc1cc(C2C/C(=N/c3nc4c([N+](=O)[O-])cc(F)c(Cl)c4s3)NN2c2nc3ccc(F)c(Cl)c3s2)ccc1O | MTT | 412.5 µg/mL
Fc1ccc(-c2nc(=S)[nH][nH]2)cc1 | MTT | 69.74 µg/mL
CCSc1n[nH]c(-c2cccc([N+](=O)[O-])c2C)n1 | - | >100 µg/mL

A second listing of 2 rows from above:

SMILES | read by | result
Fc1ccc(-c2nc(=S)[nH][nH]2)cc1 | MTT | 69.74 µg/mL
Oc1ccc(C2C/C(=N/c3nc4ccc(F)c(Cl)c4s3)NN2c2nc3ccccc3s2)cc1 | MTT | 447 µg/mL